Measured values published in article PMC6328579, “Post-exposure immunotherapy for two ebolaviruses and Marburg virus in nonhuman primates” (Nature Communications, 2019).

Molecular target: BDBV GPΔTM (Bundibugyo virus (BDBV))
Experiment: ELISA
Settings: both partners purified

B1: FVM04 (antibody, V domains shown)
VH: EVQLVQSGGGLVQPGGSMRLSCEASGLSLSDYFMHWVRQAQGKGLEWIGLIQTKAFTYKTEYPAAVKGRFTISRDDSKNTLYLQMSSLKPEDTALYYCIAVTPDFYYWGQGVLVTVSS
VL: DVVMTQSPSFLSASVGDRVTITCRASQDITINLNWFQHKPGKAPKRLIYVASRLERGVPSRFSGSGSGTEFTLTISSLQPEDFATYYCQQYNNYPLTFGPGTKLDIK
binding result: binds
